Measured values from several laboratories, pooled; numbers as filed in NIAID ChemDB.

Shared fields: enzyme or target tests

Fold resistance has wild type as its base.

compound | dose | method | strain | species | protein | read-out | changes | value
N[C@@H](CO)CC[C@@H]1O[C@H](CO)[C@H](O)[C@H](O)[C@H]1O | 1000 µg/mL | ELISA |  | HIV-1 | gp120 | inhibition |  | 0%
CC(C)[C@H](NC(=O)c1ccc2ccccc2n1)C(=O)N[C@@H](Cc1ccccc1)[C@H](O)CN1CC[C@@H](OCc2ccncc2)C[C@H]1C(=O)NC(C)(C)C |  | substrate cleavage / HPLC |  | HIV-2 | Protease | IC50 |  | 0.01 µM
Cc1c(Sc2ccccc2)n(COCCO)c(=O)[nH]c1=O |  |  |  | HIV | Reverse transcriptase | fold resistance | RT-K103N Y181I Y188L | >10
O=C(O)C(=O)/C=C(\O)c1cn(Cc2cc(F)ccc2F)c2ccc(F)cc12 |  | strand transfer / fluorescence |  | HIV-1 | Integrase | fold resistance | Y143R | 11
O=c1c(O[C@@H]2O[C@H](CO)[C@@H](O)[C@H](O)[C@H]2O)c(-c2ccc(O)cc2)oc2cc(O)cc(O)c12 | 9 µg/mL | binding |  | HIV-1 | gp120 | inhibition |  | ~29%
O=S(=O)(SC(Cl)(Cl)Cl)c1cccc(S(=O)(=O)c2cccc(S(=O)(=O)SC(Cl)(Cl)Cl)c2)c1 |  | 3′ processing |  | HIV-2 | Integrase | IC50 |  | 38 µM
CCOC(=O)C(C(=O)OCC)c1cn(S(=O)(=O)c2ccc(C)cc2)c2ccc(NC(=O)c3ccc(F)cc3Cl)cc12 |  | strand transfer / fluorescence |  | HIV-1 | Integrase | fold resistance | G140S | 1
CC(C)Nc1cccnc1N1CCN(C(=O)c2cc3ccccc3[nH]2)CC1 |  | nucleotide incorporation |  | HIV | Reverse transcriptase | fold resistance | RT-G190E | 314
O=NNc1ccc(S(=O)(=O)c2ccc(NN=O)cc2)cc1 |  | strand transfer |  | HIV-2 | Integrase | IC50 |  | 12 µM
O=C1CC(c2ccccc2)Oc2ccccc21 |  | fluorescence |  | HIV-1 | RNase H | IC50 |  | 21 µM
CC(C)c1nc(C(=O)NCc2ccc(F)cc2)c(O)c(=O)n1C |  | substrate cleavage |  | HIV-1 | RNase H | IC50 |  | 11.9 µM
O=[N+]([O-])c1cc(S(=O)(=O)c2ccc(S)c([N+](=O)[O-])c2)ccc1S |  | 3′ processing |  | HIV-2 | Integrase | IC50 |  | 2.8 µM
Cc1cn([C@@H]2O[C@H](CO[Si](C)(C)C(C)(C)C)C3(OS(=O)(=O)C=C3N)[C@H]2O[Si](C)(C)C(C)(C)C)c(=O)n(C)c1=O |  | nucleotide incorporation |  | HIV | Reverse transcriptase | IC50 | RT-Y181C | >750 µM
CCOC(=O)C(C(=O)OCC)c1cn(S(=O)(=O)c2ccc(C)cc2)c2ccc(NC(=O)c3ccc(OC)cc3)cc12 |  | strand transfer / fluorescence |  | HIV-1 | Integrase | IC50 |  | >25 µM
CCOCn1c(Cc2ccccc2)c(C(C)C)c(=O)[nH]c1=O |  | nucleotide incorporation | ROD | HIV-2 | Reverse transcriptase | IC50 |  | 1441 µM
Cc1ccc(S(=O)(=O)n2cc(C(C(=O)O)C(=O)O)c3cc(NC(=O)c4cc(F)c(F)c(F)c4)ccc32)cc1 |  | strand transfer / fluorescence |  | HIV-1 | Integrase | IC50 | Y143R | >25 µM
CC(=O)c1ccc(C)cc1NC(C(N)=O)c1c(Cl)cccc1Cl |  | nucleotide incorporation | EHO | HIV-2 | Reverse transcriptase | IC50 |  | >1425 µM
Cc1ccc(S(=O)(=O)n2cc(/C(O)=C/C(=O)C(=O)O)c3cc(F)ccc32)cc1 |  | strand transfer / fluorescence |  | HIV-1 | Integrase | fold resistance | Y143R | 8
O=C(O)C1=C[C@@H](O)[C@@H](O)[C@H](O)C1 |  | fluorescence |  | HIV-1 | RNase H | IC50 |  | >100 µM
Nc1nc2c(ncn2[C@H]2CC[C@@H](COP(=O)(O)OP(=O)(O)OP(=O)(O)O)O2)c(=O)[nH]1 |  | nucleotide incorporation |  | HIV | Reverse transcriptase | IC50 | RT-Y181I | 0.06 µM
Oc1[nH]c2ccc(Cl)cc2c1N=Nc1nc(-c2ccc(F)cc2F)cs1 |  | nucleotide incorporation / absorbance |  | HIV-1 | RNase H | IC50 |  | 10 µM
Nc1ccn([C@@H]2CS[C@H](COP(=O)(O)OP(=O)(O)OP(=O)(O)O)O2)c(=O)n1 |  | nucleotide incorporation / radiometric |  | HIV-1 | Reverse transcriptase | Ki |  | 1.3 µM
N#CC(C#N)=NNc1ccc(S(=O)(=O)c2ccc(NN=C(C#N)C#N)cc2)cc1 |  | strand transfer |  | HIV-2 | Integrase | IC50 |  | 38 µM
NS(=O)(=O)c1ccc(Nc2c3ccccc3nc3c(C(=O)NC(CO)(CO)CO)cccc23)cc1 | 100 µg/mL | 3′ processing | RF | HIV-1 | Integrase | inhibition |  | 52.9%
O=Cc1cc(S(=O)(=O)c2ccc(O)c(C=O)c2)ccc1O |  | strand transfer |  | HIV-2 | Integrase | IC50 |  | 0.8 µM
Cc1cc(S(N)(=O)=O)ccc1NC(=O)COc1ccc(Cl)cc1C(=O)c1cc(Cl)cc(C#N)c1 |  | fluorescence |  | HIV-1 | Reverse transcriptase | fold resistance | RT-V106A Y181C | 1.94
O/N=C1\C(=C\c2ccc3c(c2)OCCO3)CCCC1C(NO)c1ccc2c(c1)OCCO2 | 100 µg/mL | 3′ processing | RF | HIV-1 | Integrase | inhibition |  | 42%
O=C1OCC2OC(O)C(O)C(O)C2OC(=O)c2cc(O)c(O)c(O)c2-c2c(O)c(O)c3oc(=O)c4c(c(O)c(O)c5oc(=O)c2c3c54)-c2c1cc(O)c(O)c2O |  | ELISA / RNase H |  | HIV-1 | RNase H + Reverse transcriptase | IC50 |  | 0.18 µM
COC(=O)C(Cc1ccccc1)NC(=O)[C@@H](NC(=O)[C@@H](C[C@H](O)[C@H](CC1CCCCC1)NC(=O)[C@@H](NC(=O)[C@H](Cc1ccccc1)CS(=O)(=O)C(C)(C)C)C(C)C)C(C)C)C(C)C |  | nucleotide incorporation | ROD | HIV-2 | Reverse transcriptase | IC50 |  | 462 µM
COC(O)/C=C/c1ccc2c(c1)c(C(=O)/C=C1\OC(C)(C)OC1=O)cn2Cc1ccc(F)cc1 |  | strand transfer / fluorescence |  | HIV-1 | Integrase | fold resistance | G140S | 0.9
Cc1cn([C@H]2C=C[C@@H](COP(=O)(O)OP(=O)(O)OP(=O)(O)O)O2)c(=O)[nH]c1=O |  | RT activity |  | HIV-1 | Reverse transcriptase | Ki | RT-K103N | 0.03 µM
Cc1cn([C@@H]2O[C@H](CO[Si](C)(C)C(C)(C)C)C3(OS(=O)(=O)C=C3N)[C@H]2O[Si](C)(C)C(C)(C)C)c(=O)n(C)c1=O |  | nucleotide incorporation / radiometric |  | HIV | Reverse transcriptase | fold resistance | RT-N137S | 0.88
CCOC(=O)C(C(=O)OCC)c1cn(Cc2cc(F)ccc2F)c2ccc(F)cc12 |  | strand transfer / fluorescence |  | HIV-1 | Integrase | IC50 | G140S | 25.4 µM
O=C(/C=C/c1ccc(O)cc1)OC[C@H]1O[C@@H](Oc2c(-c3ccc(O)cc3)oc3cc(O)cc(O)c3c2=O)[C@H](O)[C@@H](O)[C@@H]1O | 30 µg/mL | binding |  | HIV-1 | gp120 | inhibition |  | ~58%
COc1ccc(C(=O)Nc2nc3nc(-c4ccccc4)cc(C)n3n2)cc1OC |  | RNase H / absorbance |  | HIV-1 | RNase H | IC50 |  | >100 µg/mL
COc1ccc2c(c1)N(C(=O)OC(C)C)[C@@H](CSC)C(=S)N2 |  | RT activity |  | HIV | Reverse transcriptase | fold resistance | RT-D67N K70R T215F K219Q K103N | 12.8
NCC1O[C@H](O[C@H]2C(N)C[C@@H](N)C(O)[C@H]2O[C@@H]2O[C@H](Cn3cc(CNC(=O)[C@@H](N)Cc4cnc[nH]4)nn3)[C@H](O[C@H]3O[C@@H](CN)[C@@H](O)C(O)C3N)C2O)C(N)[C@@H](O)[C@@H]1O |  | RNase H / fluorescence |  | HIV-1 | Tat:TAR/LTR | IC50 |  | 0.683 µM
Fc1cccc(F)c1C1SCc2nc3ccccc3n21 |  | nucleotide incorporation |  | HIV-2 | Reverse transcriptase | IC50 |  | >300 µM
C[C@@H]1O[C@@H](Oc2c(-c3cc(O)c(O)c(O)c3)oc3cc(O)cc(O)c3c2=O)[C@H](O)[C@H](O)[C@H]1O |  |  |  | HIV-1 | RNase H | IC50 |  | >500 µM
Nc1ncnc2c1ncn2[C@H]1C[C@H](O)[C@@H](COP(=O)(O)O)O1 |  |  |  | HIV | RNase H | IC50 |  | 3000 µM

A second listing of 3 rows from above:

compound,dose,method,strain,species,protein,read-out,changes,value
O=c1c(O[C@@H]2O[C@H](CO)[C@@H](O)[C@H](O)[C@H]2O)c(-c2ccc(O)cc2)oc2cc(O)cc(O)c12,9 µg/mL,binding,,HIV-1,gp120,inhibition,,~29%
Cc1cc(S(N)(=O)=O)ccc1NC(=O)COc1ccc(Cl)cc1C(=O)c1cc(Cl)cc(C#N)c1,,fluorescence,,HIV-1,Reverse transcriptase,fold resistance,RT-V106A Y181C,1.94
NS(=O)(=O)c1ccc(Nc2c3ccccc3nc3c(C(=O)NC(CO)(CO)CO)cccc23)cc1,100 µg/mL,3′ processing,RF,HIV-1,Integrase,inhibition,,52.9%

Percent inhibition refers to the dose given; in toxicity tests it is the harm to the cells. Rows are shuffled and stem from different studies. ICn is the concentration giving n% inhibition. Blank or dashed fields: not listed here.